## Share of PSTVd loop 15 variants by leaf site

Values reported by Wu et al. 2024 (doi:10.1371/journal.ppat.1012142).

Region: loop 15 of PSTVd (intermediate strain), upper and lower strand joined, each 5' to 3', the first 7 letters being the upper strand, closing pairs included. Wild type: GGAAACCGCUACUAC. Varied positions (N): GGAAACCGNNNNNNC.

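Three N. benthamiana plants were inoculated with the whole mutant pool. Samples came from the inoculated region at 5 days, the leaf margin at 10 and upper systemic leaves at 12.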

Values are reads per thousand in the sample; higher means more abundant, 0 means not found. Each site shows the three plants. "Pool" is the share in the plasmid pool used as inoculum, on the same scale. The inoculated region was read from the minus strand, the other sites from the plus strand. The authors trace changes outside the varied positions to PCR and sequencing errors or to mutation in the plant; presence does not show that a variant is infectious alone.

With GGAAACCGAAAAAAC (pool 0.416) the assay gave inoculated region 0.344 / 0.321 / 0.286; leaf margin 0.243 / 0.0891 / 0.200; systemic leaves 0.0483 / 0 / 0. For GGAAACCGGCAGUGC (pool 0.240) the result was inoculated region 0.262 / 0.305 / 0.324; leaf margin 0.162 / 0.111 / 0.160; systemic leaves 0.0483 / 0.0908 / 0.137. GGAAACCGGUCAGAC (pool 0.160) read inoculated region 0.115 / 0.129 / 0.152; leaf margin 0.0323 / 0.0223 / 0.0601; systemic leaves 0.0322 / 0 / 0. GGAAACCGUAAUAGC (pool 0.304) gave inoculated region 0.0655 / 0.0482 / 0.171; leaf margin 0.0162 / 0 / 0.0200; systemic leaves 0 / 0 / 0. GGAAACCGCGCAUGC (pool 0.336) gave inoculated region 0.147 / 0.0803 / 0.0571; leaf margin 0 / 0 / 0.0601; systemic leaves 0.0161 / 0 / 0. For GGAAACCGUCGUCGC (pool 0.240) the result was inoculated region 0.0328 / 0.0482 / 0.0762; leaf margin 0 / 0 / 0; systemic leaves 0 / 0 / 0. For GGAAACCGUUCUAUC (pool 0.288) the result was inoculated region 0.377 / 0.530 / 0.362; leaf margin 0.0647 / 0.134 / 0.220; systemic leaves 0.0322 / 0.0151 / 0.

GGAAACCGGGGGUGC (pool 0.160) gave inoculated region 0.0983 / 0.0482 / 0.0381; leaf margin 0 / 0 / 0.0601; systemic leaves 0.0161 / 0 / 0. GGAAACCGCUCCGCC (pool 0.304) read inoculated region 0.180 / 0.0803 / 0.0952; leaf margin 0 / 0.0223 / 0; systemic leaves 0.0161 / 0 / 0. With GGAAACCGUAGUCUC (pool 0.272) the assay gave inoculated region 0.0655 / 0.177 / 0.171; leaf margin 0.0323 / 1.76 / 0; systemic leaves 0 / 0 / 0. With GGAAACCGGUGCCAC (pool 0.304) the assay gave inoculated region 0.0164 / 0.0643 / 0.0952; leaf margin 0 / 0 / 0; systemic leaves 0 / 0 / 0. GGAAACCGUGACGUC (pool 0.192) read inoculated region 0.377 / 0.369 / 0.248; leaf margin 0 / 0 / 0.0200; systemic leaves 0.0322 / 0.0151 / 0.0228. With GGAAACCGCACGACC (pool 0.352) the assay gave inoculated region 0.0983 / 0.129 / 0.0571; leaf margin 0.0323 / 0 / 0; systemic leaves 0 / 0 / 0. GGAAACCGCAAUCUC (pool 0.272) read inoculated region 0.0819 / 0.0482 / 0.152; leaf margin 0 / 0 / 0.0200; systemic leaves 0 / 0 / 0.

For GGAAACCGUGCGACC (pool 0.144) the result was inoculated region 0.0819 / 0.0643 / 0.171; leaf margin 0 / 0 / 0.0401; systemic leaves 0 / 0 / 0. GGAAACCGCCCGUUC (pool 0.224) gave inoculated region 0.164 / 0.386 / 0.286; leaf margin 0.162 / 0.0668 / 0.160; systemic leaves 0 / 0.0756 / 0.0456. GGAAACCGUCGAAAC (pool 0.240) gave inoculated region 0.147 / 0.0803 / 0.0190; leaf margin 0.0162 / 0 / 0; systemic leaves 0 / 0 / 0. With GGAAACCGGCACCCC (pool 0.336) the assay gave inoculated region 0.164 / 0.129 / 0.0762; leaf margin 0 / 0 / 0; systemic leaves 0 / 0 / 0. With GGAAACCGUACCCUC (pool 0.176) the assay gave inoculated region 0.115 / 0.129 / 0.0381; leaf margin 0 / 0.0445 / 0; systemic leaves 0.0161 / 0 / 0. GGAAACCGCGCGGGC (pool 0.208) gave inoculated region 0.0819 / 0.161 / 0.171; leaf margin 0 / 0.0223 / 0.0401; systemic leaves 0.0161 / 0 / 0.0228. For GGAAACCGCGCGGUC (pool 0.224) the result was inoculated region 0.344 / 0.273 / 0.476; leaf margin 0.0647 / 0.134 / 0.140; systemic leaves 0.0161 / 0 / 0.

GGAAACCGCAGUAUC (pool 0.208) gave inoculated region 0.229 / 0.193 / 0.286; leaf margin 0 / 0 / 0; systemic leaves 0 / 0 / 0. For GGAAACCGCUAAACC (pool 0.192) the result was inoculated region 0.131 / 0.0964 / 0.0571; leaf margin 0.0162 / 0 / 0.0200; systemic leaves 0.0161 / 0 / 0.

The last 2 entries again:

sequence	pool	inoculated region	leaf margin	systemic leaves
GGAAACCGCAGUAUC	0.208	0.229 / 0.193 / 0.286	0 / 0 / 0	0 / 0 / 0
GGAAACCGCUAAACC	0.192	0.131 / 0.0964 / 0.0571	0.0162 / 0 / 0.0200	0.0161 / 0 / 0

Wild type was 33.9 per thousand in the pool and the most common sequence in every sample (inoculated region 202, 200, 159; leaf margin 724, 746, 710; systemic leaves 856, 883, 880). With 43,870-66,106 reads a sample, very low values are single reads.